Target: saporin-L1 (Saponaria officinalis, UniProt Q2QEH4)

The chains behind the UniProt entries cited, without tags or fusion partners. Where a name states a change or a piece, a line headed by the entry shows the natural chain unless it says otherwise.
UniProt Q2QEH4: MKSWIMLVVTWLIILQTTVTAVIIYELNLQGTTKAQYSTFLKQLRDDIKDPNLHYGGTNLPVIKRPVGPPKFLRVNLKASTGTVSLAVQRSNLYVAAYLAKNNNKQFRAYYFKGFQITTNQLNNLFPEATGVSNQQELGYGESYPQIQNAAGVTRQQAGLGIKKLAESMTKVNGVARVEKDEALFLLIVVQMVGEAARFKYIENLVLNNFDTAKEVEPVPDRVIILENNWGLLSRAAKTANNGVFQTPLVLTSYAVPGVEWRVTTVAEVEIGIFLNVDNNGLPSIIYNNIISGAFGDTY

Substance: 5′-CGCGAGAGCG-3′
- Km: 95 µM
- fold faster depurination (kcat) than poly(A) RNA: 10 fold
- fold increased catalytic efficiency (kcat/Km) versus poly(A) RNA: 45 fold
- fold lower Km with saporin-L1 than with saporin-S6: 4 fold
- fold more efficient (kcat/Km) depurination by saporin-L1 than by saporin-S6: 4.800 fold
- fold tighter (Km) than poly(A) RNA: 4.5 fold
- times faster catalysis (kcat) by saporin-L1 than by saporin-S6: approximately 1,500 times

Source: patent US8884000B2 (priority 2010, dated 2014)
